Experimental data from paper PMC8121815 (Nature Communications, 2021).

Legend:
[1] = target: hTOM70/N-peptide complex (human); assay: ITC
hTOM70 ΔN3 (235–608) = assay type: binding, human
Hsp90/TOM70 interaction = assay type: binding, human
hTOM70 = assay type: binding, human
hTOM70 ΔN2 (106–608) = assay type: binding, human
hTOM70 ΔN1 (60–608) = assay type: binding, human

Substance | Kd [1] [nM] | co-elution (complex formation) (hTOM70 ΔN3 (235–608)) | effect on binding of EEVD motif / N-peptide to hTOM70 (Hsp90/TOM70 interaction) | complex formation (hTOM70) | co-elution (complex formation) (hTOM70 ΔN2 (106–608)) | co-elution (complex formation) (hTOM70 ΔN1 (60–608))
C-peptide (SARS-CoV-2 orf9b core sequence 44-70) (from UniProt P0DTD2 44-70) | 420 |  |  |  |  | 
SARS-CoV-2 orf9b: 98-amino acid accessory protein of SARS-CoV-2; homodimeric alone, helical when bound to TOM70 |  | co-eluted with SARS-CoV-2 orf9b | allosterically inhibits substrate binding at the NTD-pocket; also recorded: severely disrupts binding of the EEVD motif at the NTD-pocket | did not yield a complex | co-eluted with SARS-CoV-2 orf9b | co-eluted with SARS-CoV-2 orf9b

“Also recorded” adds a separate entry of the source.
